ChEMBL document CHEMBL1137608, “Design of a potent reactivator of tabun-inhibited acetylcholinesterase--synthesis and evaluation of (E)-1-(4-carbamoylpyridinium)-4-(4-hydroxyiminomethylpyridinium)-but-2-ene dibromide (K203)” (2007)

Test system: Rattus norvegicus
Experiment: Toxicity in intramuscular dosed rat after 24 hrs
Settings: in vivo, im

| Structure (SMILES) | LD50 [mg/kg] |
| --- | --- |
| NC(=O)c1cc[n+](C/C=C/C[n+]2ccc(/C=N/O)cc2)cc1.[Br-].[Br-] | 326 |
| NC(=O)c1cc[n+](CCC[n+]2ccc(/C=N/O)cc2)cc1.[Br-].[Br-] | > 1200 |
| NC(=O)c1cc[n+](CCCC[n+]2ccc(/C=N/O)cc2)cc1.[Br-].[Br-] | > 1200 |
